The data set has as its system O=C(O)[C@H]1NCC[C@H]1O. In words: purified protein. The note with it: free enzyme; coupling with NADH.
Consider “AtAcnX (Agrobacterium fabrum str. C58; W35A)”, for which the Km came out at 4000 ± 950 µM and the catalytic constant (kcat) came to 0.0365 ± 0.001 s⁻¹.

Take “AtAcnX (Agrobacterium fabrum str. C58; I206A)”: the Km was 2370 ± 350 µM and the kcat amounted to 2.23 ± 0.267 s⁻¹.

Take “AtAcnX (Agrobacterium fabrum str. C58; S293A)”: the Michaelis-Menten constant (Km) came to 1270 ± 30 µM and the turnover number (kcat) is 1.43 ± 0.025 s⁻¹.

Turning to “AtAcnX (Agrobacterium fabrum str. C58; T72A)”, the Michaelis constant (Km) is 1840 ± 60 µM and the kcat was found to be 6.9 ± 0.217 s⁻¹.

The values are drawn from article PMC8184944, “Crystal structures of aconitase X enzymes from bacteria and archaea provide insights into the molecular evolution of the aconitase superfamily” (Communications Biology, 2021).
